Pooled drug test results. Numbers come from NIAID ChemDB, via PubChem.

All rows: whole-cell or culture tests; organism: Candida albicans; read by: agar diffusion; endpoint: zone

Zone: diameter of growth inhibition.

smiles,dose,strain or isolate,result
C/C=C/C1=CC2=CC(=O)[C@](C)(OC(=O)c3c(C)cc(O)c(O)c3OC)C(=O)C2=CO1,50 µg/disc,ATCC 64548,0 mm
O=C1C(Cl)C(c2ccc(Cl)cc2)N1Nc1nc2ccccc2n2nnnc12,50 µg/mL,ATCC 2091,8 mm
Cc1c(N2C(=O)CSC23C(=O)N(CCCCCCBr)c2ccccc23)c(=O)n(-c2ccccc2)n1C,100 µg/mL,MTCC 227,16 mm
COc1ccccc1/C=N/N=C1/NC(=O)/C(=C\c2ccccc2OC)S1,200 µg,ATCC 10231,9 mm
Cc1nn(-c2ccccc2)c2c1C1(C(=O)N(CCCCCCN3C(=O)C4(SCC(=O)N4c4c(C)n(C)n(-c5ccccc5)c4=O)c4cc(F)ccc43)c3ccccc31)c1c(C)nn(-c3ccccc3)c1O2,100 µg/mL,MTCC 227,18 mm
O=C1C(Cl)C(c2ccc([N+](=O)[O-])cc2)N1Nc1nc2ccccc2n2nnnc12,50 µg/mL,ATCC 2091,10 mm
Cc1c(N2C(=O)CSC23C(=O)N(CCCCCCBr)c2ccc(F)cc23)c(=O)n(-c2ccccc2)n1C,100 µg/mL,MTCC 227,17 mm
COc1ccc(C2N=C3SC(S(N)(=O)=O)=NN3C(Nc3ccc(C)cc3)=C2C#N)cc1OC,5000 µg/mL,,5 mm
O=C(OC(CCn1ccnc1)c1ccccc1)c1ccc(C(F)(F)F)cc1,1000 µg,,14 mm
Cc1ccc2c(c1)sc1nc(=O)cc(C(=O)NN)n12,5000 µg/mL,,32 mm
CC1(C)C=C2C3CCC4[C@@]5(C)CC[C@H](OC(=O)/C=C/c6ccc(O)c(O)c6)C(C)(C)C5CC[C@@]4(C)[C@]3(C)CC[C@@]2(C)CC1,30 mg/disc,UPCC 2168,13 mm
O=C1C(Cl)C(c2ccc(O)cc2)N1Nc1nc2ccccc2n2nnnc12,50 µg/mL,ATCC 2091,9 mm
Cc1nn(-c2ccccc2)c2c1C1(C(=O)N(CCCCCCN3C(=O)C4(SCC(=O)N4c4c(C)n(C)n(-c5ccccc5)c4=O)c4ccccc43)c3ccc(F)cc31)c1c(C)nn(-c3ccccc3)c1O2,100 µg/mL,MTCC 227,18 mm
COc1ccccc1/C=N/N=C1/NC(=O)/C(=C\c2c(Cl)cccc2Cl)S1,200 µg,ATCC 10231,9 mm
O=C(OC(CCn1ccnc1)c1ccccc1)c1ccc(Cl)c(Cl)c1,1000 µg,,17 mm
COc1ccc(C2CC(=O)C3=C(C2)OC2=C(C(=O)CC(c4ccc(OC)c(OC)c4)C2)C3c2ccc(C3C4=C(CC(c5ccc(OC)c(OC)c5)CC4=O)OC4=C3C(=O)CC(c3ccc(OC)c(OC)c3)C4)cc2)cc1OC,140 µg/disc,ATCC 10231,7 mm
O=C(OC(CCn1ccnc1)c1ccccc1)c1ccc(F)cc1,1000 µg,,16 mm
CC1(C)CCC2=C(C1=O)C(c1ccc(C3C4=C(CCC(C)(C)C4=O)OC4=C3C(=O)C(C)(C)CC4)cc1)C1=C(CCC(C)(C)C1=O)O2,140 µg/disc,ATCC 10231,0 mm
O=C1CSC(c2ccccc2)N1Nc1nc2ccccc2n2nnnc12,50 µg/mL,ATCC 2091,7 mm
N#CC1=C(Nc2ccc(Br)cc2)N2N=C(S(N)(=O)=O)SC2=NC1c1ccccc1,5000 µg/mL,,3 mm
O=C1N/C(=N/N=C/c2c(Cl)cccc2Cl)S/C1=C/c1c(Cl)cccc1Cl,200 µg,ATCC 10231,16 mm
OC(Cn1cncn1)(Cn1cncn1)c1ccc(F)cc1F,1000 µg,,15 mm
O=C1CSC(c2ccccc2[N+](=O)[O-])N1Nc1nc2ccccc2n2nnnc12,100 µg/mL,ATCC 2091,9 mm
CC1(C)C=C2N=C3SC(S(N)(=O)=O)=NN3C=C2C(=O)C1,5000 µg/mL,,3 mm
O=C(OC(CCn1ccnc1)c1ccccc1)c1ccncc1,1000 µg,,14 mm
Cc1ccc(NC2=C(C#N)C(c3ccc(Br)cc3)N=C3SC(S(N)(=O)=O)=NN32)cc1,5000 µg/mL,,4 mm
COc1ccccc1/C=N/N=C1\NC(=O)CS1,200 µg,ATCC 10231,8 mm
Cc1ccc2c(c1)C1(C(=O)N2CCCCCCN2C(=O)C3(SCC(=O)N3c3c(C)n(C)n(-c4ccccc4)c3=O)c3cc(C)ccc32)c2c(C)nn(-c3ccccc3)c2Oc2c1c(C)nn2-c1ccccc1,100 µg/mL,MTCC 227,18 mm
O=C1C(Cl)C(c2ccccc2F)N1Nc1nc2ccccc2n2nnnc12,100 µg/mL,ATCC 2091,10 mm
C[C@H]1[C@H](O)[C@@H](C)/C=C/C=C/C=C/C=C/C=C/C=C/C=C/[C@H](O[C@@H]2O[C@H](C)[C@@H](O)[C@H](N)[C@@H]2O)C[C@@H]2O[C@](O)(C[C@@H](O)C[C@@H](O)CC[C@H](O)[C@@H](O)C[C@@H](O)CC(=O)O[C@H]1C)C[C@H](O)[C@H]2C(=O)O,100 µg/mL,MTCC,20 mm
CC1(C)CC(=O)C2=C(C1)OC1=C(C(=O)CC(C)(C)C1)C2c1cccc(C2C3=C(CC(C)(C)CC3=O)OC3=C2C(=O)CC(C)(C)C3)c1,40 µg/disc,ATCC 10231,7 mm
Cc1ccc(C(CCn2ccnc2)OC(=O)c2ccc(Cl)cc2)cc1,1000 µg,,14 mm
O=C1C(Cl)C(c2ccc(F)cc2)N1Nc1nc2ccccc2n2nnnc12,100 µg/mL,ATCC 2091,10 mm
CC1(C)C=C2[C@H]3CC[C@@H]4[C@@]5(C)CC[C@H](O)C(C)(C)[C@@H]5CC[C@@]4(C)[C@]3(C)CC[C@@]2(C)CC1,30 mg/disc,UPCC 2168,12 mm
O=C1CC(c2ccccc2)CC2=C1C(c1ccc(C3C4=C(CC(c5ccccc5)CC4=O)OC4=C3C(=O)CC(c3ccccc3)C4)cc1)C1=C(CC(c3ccccc3)CC1=O)O2,20 µg/disc,ATCC 10231,7 mm
O=C1CSC(c2ccccc2F)N1Nc1nc2ccccc2n2nnnc12,50 µg/mL,ATCC 2091,7 mm
CC1=C2C(=O)CC(C)(C)C=C2N=C2SC(S(N)(=O)=O)=NN21,5000 µg/mL,,4 mm
Cc1ccc2c(c1)C1(SCC(=O)N1c1c(C)n(C)n(-c3ccccc3)c1=O)C(=O)N2CCCCCCN1C(=O)C2(c3ccccc31)c1c(C)nn(-c3ccccc3)c1Oc1c2c(C)nn1-c1ccccc1,100 µg/mL,MTCC 227,17 mm

3 of the rows above, restated:

smiles	dose	strain or isolate	result
O=C1C(Cl)C(c2ccccc2F)N1Nc1nc2ccccc2n2nnnc12	100 µg/mL	ATCC 2091	10 mm
O=C1N/C(=N/N=C/c2c(Cl)cccc2Cl)S/C1=C/c1c(Cl)cccc1Cl	200 µg	ATCC 10231	16 mm
CC1(C)C=C2N=C3SC(S(N)(=O)=O)=NN3C=C2C(=O)C1	5000 µg/mL		3 mm

Lines come from different laboratories, so protocols vary. Blank or dashed fields: not listed here.